Measured values from several laboratories, pooled; numbers as filed in NIAID ChemDB.

All rows: whole-cell or culture tests; species: HIV-1; cell line: PBMC; read-out: EC90

Blank or dashed fields: not listed here. a–b is a range or a potency band. ECn: concentration that inhibits the pathogen or its effect by n%. Lines come from different laboratories, so protocols vary.

smiles,strain or isolate,mutations,method,value
Nc1ncnc2c1ncn2[C@H]1OC[C@@](F)(CCP(=O)(O)O)[C@H]1F,LAI,,MTT,80 µM
CCCCCCCCC#Cc1cn(C/C=C/C(O)CO)c(=O)[nH]c1=O,LAI,,RT activity,>100 µM
O[C@]12C=C(Cc3cc4cc(F)ccc4[nH]3)[C@@H]3CCN(CCCC/C=C\CC1)C[C@@]31C[C@@H]3CCCCCCN3C12,LAV,,RT activity,11.5 µM
Nc1nc2c(ncn2[C@H]2OC[C@@](F)(CCP(=O)(O)O)[C@H]2F)c(=O)[nH]1,LAI,,MTT,95 µM
CCOP(=O)(CO[C@H]1C[C@@H](n2cnc3c(N)nc(F)nc32)C(F)(F)C1)OCC,LAI,,RT activity,95 µM
CCCCCCCCc1cc2cn(COCCO)c(=O)nc2o1,LAI,,RT activity,>100 µM
O=C(O)C(=O)CC(=O)c1cc2ccccc2c2ccccc12,LAI,,RT activity,>100 µM
Nc1nc(=O)n([C@H]2C=C[C@@H](CO)O2)cc1I,LAI,,RT activity,>10 µM
C[C@@]1(O)[C@H](O)[C@@H](CO)O[C@H]1n1c2ncnc(N)c2c2c(=O)[nH]c(=S)[nH]c21,LAI,,,>100 µM
C[C@]1(/C=C/P(=O)(O)O)CO[C@@H](n2cnc3c(=O)[nH]c(N)nc32)C1,LAI,,,95 µM
CC(C)Nc1cccnc1N1CCN(C(=O)c2cc3cc(NS(C)(=O)=O)ccc3[nH]2)CC1,Isolate 410,,p24,>10 µM
[O-][n+]1ccc(CC2=C[C@@]3(O)CC/C=C\CCCCN4CC[C@@H]2[C@]2(C[C@@H]5CCCCCCN5C23)C4)cc1,LAV,,RT activity,35.6 µM
CC(C)CN(C[C@@H](O)[C@H](Cc1ccccc1)NC(=O)[C@@H](NC(=O)CNCc1cccc(F)c1)C(C)(C)C)S(=O)(=O)c1ccc(N)cc1,NL4-3,,p24,0.02 µM
O=C(Nc1cc(S(=O)(=O)O)cc2cc(S(=O)(=O)O)c(N=Nc3ccc(N=Nc4c(S(=O)(=O)O)cc5cc(S(=O)(=O)O)cc(NC(=O)c6cccc(Cl)c6Cl)c5c4O)cc3)c(O)c12)c1ccc(Cl)cc1Cl,BaL,,,0.24–0.63 µg/mL
Cc1ccnc2c1NC(=O)c1cccnc1N2C1CC1,IIIB,,p24,0.15 µM
CC(C)Nc1cccnc1N1CCN(C(=O)c2cc3cc(NS(C)(=O)=O)ccc3[nH]2)CC1,458 clinical isolates delavirdine-resistant,,p24,7.7 µM
O=c1nc2oc(-c3ccccc3)cc2cn1COCCO,LAI,,RT activity,>100 µM
O=c1[nH]cnc2c1ncn2[C@H]1CC[C@@H](CO)O1,XM-Q151M,RT-A62V V75I F77C F116Y Q151M,p24,106 µM
CC(C)Nc1cccnc1N1CCN(C(=O)c2cc3cc(NS(C)(=O)=O)ccc3[nH]2)CC1,Subtype B isolate,,RT activity,0.1 µM
CCC[C@@H](c1ccc(C(F)(F)F)cc1)N1CCN(C2(C)CCN(C(=O)c3c(C)ncnc3C)CC2)C[C@@H]1C,ADA-M Clinical isolates,,,0.00003 µM
CC#CCN1C(=O)[C@H]([C@@H](O)C2CCCCC2)NC(=O)C12CCN(Cc1c(C)nn(-c3ccccc3)c1C)CC2,JR-FL R5,,p24,0.144 µM
CC(C)(C)NC(=O)[C@@H]1CN(Cc2cccnc2)CCN1C[C@@H](O)C[C@@H](Cc1ccccc1)C(=O)N[C@H]1c2ccccc2C[C@H]1O,BR97 (PR L10I K20R M36I/V P63L/S L90M),PR-L10I K20R M36I/V P63L/S L90M,p24,0.011 µM
Cc1ncnc(C)c1C(=O)N1CCC(C)(N2CCN([C@@H](Cc3ccccc3)c3ccc(C(F)(F)F)cc3)[C@@H](C)C2)CC1,301657 Clinical isolates,,,0.0006 µM
Cc1cccc(C)c1OCC(=O)N[C@@H](Cc1ccccc1)[C@@H](O)C[C@H](Cc1ccccc1)NC(=O)[C@H](C(C)C)N1CCCNC1=O,HXB2,PR-L10R M46I L63P V82T I84V,p24,0.33 µM
Nc1ccn([C@H]2S[C@@H](CO)C=C2F)c(=O)n1,3TC-resistant (RT M184V),RT-M184V,,>100 µM
CCCCN1C(=O)C(CC2CCCCC2)NC(=O)C12CCN(Cc1ccc3c(c1)OCCO3)CC2,BAL R5,,p24,0.709 µM
Cc1cn([C@H]2C[C@H](N=[N+]=[N-])[C@@H](CO)O2)c(=O)[nH]c1=O,JR-CSF,,p24,0.019 µM
CCCCCC#Cc1cn(COCCO)c(=O)[nH]c1=O,LAI,,RT activity,>100 µM
O=c1[nH]c(=O)n([C@@H]2C=C[C@H](CO)O2)cc1F,LAI,,RT activity,3 µM
CC(C)(C)NC(=O)C1N(C(=O)[C@@H](O)[C@H](Cc2ccccc2)NC(=O)[C@H](CS(C)(=O)=O)NC(=O)COc2cccc3ccccc23)CSC1(C)C,Clinical isolates,,p24,0.05 µM
CC(C)(C)NC(=O)[C@@H]1C[C@@H]2CCCC[C@@H]2CN1C[C@@H](O)[C@H](Cc1ccccc1)NC(=O)[C@H](CC(N)=O)NC(=O)c1ccc2ccccc2n1,Subtype B isolate,,RT activity,0.019 µM
COC(=O)[C@H](C)NP(=O)(OC[C@@H]1C=C[C@H](n2cc(C)c(=O)[nH]c2=O)O1)Oc1ccc(Br)cc1,IIIB,,p24,0.052 µM
O=C(O)C(=O)CC(=O)c1c2ccccc2cc2ccccc12,LAI,,RT activity,>100 µM
CCC[C@@]1(CCc2ccccc2)CC(O)=C([C@H](CC)c2cccc(NS(=O)(=O)c3ccc(C(F)(F)F)cn3)c2)C(=O)O1,458 clinical isolates delavirdine-resistant,,p24,0.04 µM
C[C@@]1(O)[C@H](O)[C@@H](CO)O[C@H]1n1c2ncnc(N)c2c2c(=O)[nH]c(N)nc21,LAI,,,>100 µM
Nc1ccn([C@@H]2O[C@H](CO)C=C2F)c(=O)n1,xxBRU,,,8 µM
O=c1[nH]cnc2c1ncn2[C@H]1CC[C@@H](CO)O1,HXB2,,p24,7.5 µM
Nc1ncnc2c1c1c(N)ncnc1n2[C@@H]1O[C@H](CO)[C@@H](O)[C@H]1O,LAI,,,>100 µM
CCCCCCCCc1cc2cn(CC=C(CO)CO)c(=O)nc2o1,LAI,,RT activity,39 µM
Cc1cn([C@H]2C[C@H](N=[N+]=[N-])[C@@H](CO)O2)c(=O)[nH]c1=O,NL4-3 X4,,p24,0.181 µM
CSC[C@H](NC(=O)COc1cccc2ccccc12)C(=O)N[C@@H](Cc1ccccc1)[C@H](O)C(=O)N1CSC(C)(C)[C@H]1C(=O)NC(C)(C)C,Clinical isolates,,p24,0.06 µM
Cc1ccc(-c2ccc3c(c2)C=C(C(=O)Nc2ccc(C[N+](C)(C)C4CCOCC4)cc2)CCC3)cc1,JR-FL R5,,p24,0.237 µM
Nc1ncnc2c1ncn2[C@@H]1C[C@H](OCP(=O)(O)O)CC1(F)F,LAI,,RT activity,90 µM
O[C@]12C=C(Cc3nccc4ccccc34)[C@@H]3CCN(CCCC/C=C\CC1)C[C@@]31C[C@@H]3CCCCCCN3C12,LAV,,RT activity,60.4 µM
Nc1ncnc2c1ncn2C1OC(CO)C=C1F,LAV,,RT activity,15.1 µM
Cc1cn([C@H]2C[C@H](N=[N+]=[N-])[C@@H](CO)O2)c(=O)[nH]c1=O,RF,,p24,0.002 µM
CCOP(=O)(CO[C@H]1C[C@@H](n2cnc3c(Cl)nc(N)nc32)C(F)(F)C1)OCC,LAI,,RT activity,95 µM
CC(=O)c1cn(C/C=C/C(O)CO)c(=O)[nH]c1=O,LAI,,RT activity,>100 µM
O=c1[nH]c(=O)n([C@H]2C=C[C@@H](CO)O2)cc1F,LAI,,RT activity,23 µM
Cc1cn([C@H]2C[C@H](N=[N+]=[N-])[C@@H](CO)O2)c(=O)[nH]c1=O,Isolate 410,,p24,6.6 µM
Cc1cn([C@H]2C=C[C@@H](CO)O2)c(=O)[nH]c1=O,IIIB,,p24,1.47 µM
COC(=O)[C@H](C)NP(=O)(OC[C@@H]1C=C[C@H](n2cc(C)c(=O)[nH]c2=O)O1)Oc1ccc(Br)cc1,IIIB,,p24,0.0097 µM
CCCCCc1ccc(-c2cc3cn(C/C=C/C(O)CO)c(=O)nc3o2)cc1,LAI,,RT activity,>100 µM

A second listing of 6 rows from above:

smiles,strain or isolate,mutations,method,value
Cc1cn([C@H]2C=C[C@@H](CO)O2)c(=O)[nH]c1=O,IIIB,,p24,1.47 µM
Cc1cccc(C)c1OCC(=O)N[C@@H](Cc1ccccc1)[C@@H](O)C[C@H](Cc1ccccc1)NC(=O)[C@H](C(C)C)N1CCCNC1=O,HXB2,PR-L10R M46I L63P V82T I84V,p24,0.33 µM
Nc1ncnc2c1ncn2C1OC(CO)C=C1F,LAV,,RT activity,15.1 µM
O=c1[nH]c(=O)n([C@@H]2C=C[C@H](CO)O2)cc1F,LAI,,RT activity,3 µM
C[C@@]1(O)[C@H](O)[C@@H](CO)O[C@H]1n1c2ncnc(N)c2c2c(=O)[nH]c(N)nc21,LAI,,,>100 µM
Nc1nc2c(ncn2[C@H]2OC[C@@](F)(CCP(=O)(O)O)[C@H]2F)c(=O)[nH]1,LAI,,MTT,95 µM